Reference: PubChem BioAssay AID1259414 (Drosophila RNAi Screening Center, 2018)

Aim: 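Genome-wide screen for host control of endosymbiont load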 (primary screen)
System: Drosophila JW18 cells infected with Wolbachia
Reagents: long dsRNA against Drosophila genes, 0.25 µg dsRNA per well of a 384-well plate
Time to read-out: 5 days
Treatment: cells persistently infected with Wolbachia before knock-down; no added drug
Detection: 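Imaged fluorescence in situ signal for Wolbachia 23S rRNA per DAPI-counted host cell, given as a robust z-score within each plate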
Reading the numbers: Wolbachia per cell robust z: higher = more Wolbachia per host cell than the plate typical
Rule for the call: 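Hit when robust z is 1.5 or more, or -1.5 or less, in at least two of three replicates; excludes dsRNAs with several or no targets, genes not expressed in JW18 and well A1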
In all, the deposit lists about 24,000 reagents; shown is a random part of those that have a named target and a result. In the full data, about 1,210 (5%) got an active call. 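Inactive calls also include excluded dsRNAs with several or no targets, genes unexpressed in JW18, and well A1, regardless of score.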 The numbers tell different reagents against one gene apart. A plus sign joins genes that one reagent is predicted to hit. No sequences are given here.

gene | reagent | Wolbachia per cell robust z, rep 1 | Wolbachia per cell robust z, rep 2 | Wolbachia per cell robust z, rep 3 | Outcome
SpdS | 1 | -0.0213 | 0.434 | -0.317 | inactive
out | 1 | 0.0264 | 0.778 | 1.91 | inactive
out | 2 | -0.102 | 0.284 | 1.13 | inactive
Sfp24F | 1 | 0.325 | -2.08 | 0.0749 | inactive
Ubi-p63E | 1 | 0.461 | 0.686 | 0.341 | inactive
d4 | 1 | 0.91 | -0.874 | -0.794 | inactive
d4 | 2 | 0.551 | 0.246 | -0.347 | inactive
d4 | 3 | 0.341 | 0.447 | -0.0187 | inactive
CG3358 | 1 | 0.152 | 0.414 | -0.167 | inactive
CG9962 | 1 | 0.951 | 0.341 | 0.841 | inactive
CG9962 | 2 | -8.29 | -0.599 | -0.134 | inactive
CG9962 | 3 | 0.658 | -0.352 | 0.103 | inactive
CG14739 | 1 | -4.16 | -0.377 | 0.273 | inactive
Gnmt | 1 | 0.429 | -0.275 | 0.0344 | inactive
Wwox | 1 | 1.4 | 0.905 | 0.474 | inactive
Wwox | 2 | -5.76 | -2.59 | -3.77 | active
Wwox | 3 | -1.7 | -0.158 | -0.956 | inactive
ppk14 | 1 | 0.0155 | -0.646 | -0.479 | inactive
Cdc45 | 1 | -0.437 | 1.07 | 0.907 | inactive
Cdc45 | 2 | -0.684 | -0.474 | -0.99 | inactive
CR46300 | 1 | -1.28 | -2.32 | -0.66 | inactive
CR46300 | 2 | -6.09 | -0.471 | 0.128 | inactive
CG30485 | 1 | 0.584 | 0.625 | -0.28 | inactive
CG18747 | 1 | 0.241 | 0.668 | 0.355 | inactive
CG18747 | 2 | 0.264 | 0.0407 | 0.633 | inactive
CG34130 | 1 | -3.61 | -0.62 | 0.665 | inactive
RpS2 | 1 | 3.94 | 3.31 | 3.49 | active
RpS2 | 2 | 2.55 | 3.12 | 4.78 | active
eIF4E6 | 1 | 0.346 | 0.399 | 1.46 | inactive
eIF4E6 | 2 | 0.14 | 1.02 | 0.323 | inactive
eIF4E6 | 3 | 0.449 | 2.56 | -0.493 | inactive
CG7741 + Obp47b | 1 | -6.33 | -4.51 | -0.111 | inactive
hzg | 1 | 1.59 | 0.129 | 0.537 | inactive
hzg | 2 | -0.619 | 0.533 | -0.161 | inactive
CG42260 + asRNA:CR30267 | 1 | -1.17 | -0.479 | -1.14 | inactive
Proc | 1 | -0.261 | -0.318 | -4.69 | inactive
CG17202 | 1 | -1.17 | -3.67 | 0.379 | inactive
shrb | 1 | 2.72 | 0.319 | 4.18 | active
CG18281 | 1 | -1.6 | 1.37 | 0.964 | inactive
Neurochondrin | 1 | 0.829 | 0.407 | 0.577 | inactive
Neurochondrin | 2 | -0.262 | -0.327 | 1.79 | inactive
CG1806 | 1 | -3.57 | 0.368 | 1.13 | inactive
Rim2 | 1 | -0.595 | 0.037 | 0.727 | inactive
Rim2 | 2 | -0.767 | -1.94 | -0.488 | inactive
His4:CG33893 + His4:CG33875 + His4:CG33909 + 20 more | 1 | -1.93 | 2.27 | 0.176 | inactive
CG6040 | 1 | -0.0841 | -0.777 | 0.729 | inactive
CG6040 | 2 | -0.574 | 0.303 | -0.286 | inactive
Rab9Db + Rab9Fa | 1 | -0.562 | 0.749 | 0.0834 | inactive
CG5013 | 1 | 0.243 | 1.4 | 0.927 | inactive
MRG15 | 1 | -1.82 | 0.831 | 0.068 | inactive
TwdlD | 1 | 0.748 | -0.622 | 0.237 | inactive
CG6696 | 1 | -0.833 | -0.892 | -0.176 | inactive
CG6696 | 2 | -0.891 | -0.251 | 0.0879 | inactive
TwdlL | 1 | 0.159 | -0.778 | -0.275 | inactive
TwdlL | 2 | 0.163 | 0.593 | -1.1 | inactive
He | 1 | -2.1 | -3.67 | -0.766 | inactive
blw | 1 | 0.678 | 1.45 | -0.516 | inactive
CG32651 | 1 | -0.398 | -4.5 | -2.47 | inactive
CG1441 | 1 | -0.183 | 0.489 | -0.27 | inactive
CG1441 | 2 | 1.02 | -0.322 | 0.235 | inactive
CG9302 | 1 | 0.764 | 0.561 | 1.04 | inactive
pum | 1 | -0.494 | -0.739 | -1.38 | inactive
pum | 2 | 0.919 | 0.0761 | -2.07 | inactive
pum | 3 | -1.56 | -0.631 | -0.29 | inactive
pum | 4 | -0.184 | -0.205 | 0.173 | inactive
pum | 5 | -0.0466 | -7.12 | -0.315 | inactive
CG4537 | 1 | 0.109 | -0.515 | -2.14 | inactive
CG13806 | 1 | 0.595 | -0.48 | -1.88 | inactive
